Anti-infective test results gathered from many reports (values: NIAID ChemDB through PubChem).

Shared fields: growth or infection tests; agent: Mycobacterium smegmatis; endpoint: MIC

Rows are shuffled and stem from different studies.

smiles,strain,result
C=CC1=C(C)C2=Cc3c(C=C)c(C)c4[n]3[Ga][n]3c(c(C)c(CCC(=O)O)c3=CC3=NC(=C4)C(C)=C3CCC(=O)O)=CC1=N2,LR222,0.4 µg/mL
S=C(S)N1CCCC1,mc2155,>100 µM
Cc1cc(CN2CCN(C)CC2)c(C)n1Cc1ccccc1,103599,>64 µg/mL
O=C(CCCCCCCCCCCCCCCCCNCC(=O)N1CCOP(O)(=S)OCC1)N1CCOP(O)(=S)OCC1,,7.8 µM
CNCC1CCN(c2c(F)cc3c(=O)c(C(=O)O)cn(-c4ccc(F)cc4F)c3c2F)C1,ATCC 19420,0.5 µg/mL
NCC[C@H](O)C(=O)N[C@@H]1C[C@H](N)[C@@H](O[C@H]2O[C@H](CN)[C@@H](O)[C@H](O)[C@H]2O)[C@H](O)[C@H]1O[C@H]1O[C@H](CO)[C@@H](O)[C@H](N)[C@H]1O,A24001,>128 µg/mL
Cc1ccc(C)[nH]1,103599,>16 µg/mL
Cc1c(N2CCC3CNCC32)c(F)cn2c(=O)c(C(=O)O)cc(C3CC3)c12,ATCC114,0.78 µg/mL
CCN1CCN(c2c(F)cc3c(=O)c(C(=O)O)cn(C4CC4)c3c2Cl)CC1,ATCC 19420,0.25 µg/mL
[Cl][Ga]([Cl])[Cl],LR222,100 µM
Cc1c(N2CC3CCC(N)C3C2)c(F)cn2c(=O)c(C(=O)O)cc(C3CC3)c12.Cl,ATCC114,0.02 µg/mL
CC[C@@H](O)CNCCNC[C@@H](O)CC,ATCC 607,>250 µg/mL
CC1CN(C(=O)CCCCCCCCCCCCCCCCCNCC(=O)N2CC(C)OP(=O)(O)OC(C)C2)CC(C)OP(=O)(O)O1,,15.6 µM
Cc1ccc2oc3ccccc3c(=O)c2c1,ATCC 607,>32 µg/mL
Cl.NC1CCN(c2c(F)cn3c(=O)c(C(=O)O)cc(C4CC4)c3c2F)C1,ATCC114,0.2 µg/mL
CCC(CO)N(C)CCN(C)C(CC)CO,ATCC 607,>250 µg/mL
NC(=O)c1ccc2c(=O)c3ccccc3oc2c1,ATCC 607,>32 µg/mL
C=CC1=C(C)C2=Cc3c(C=C)c(C)c4[n]3[Sb][n]3c(c(C)c(CCC(=O)O)c3=CC3=NC(=C4)C(C)=C3CCC(=O)O)=CC1=N2,LR222,20 µg/mL
Cc1cc(CN2CCN(C)CC2)c(C)n1C1CCCCC1,103599,>64 µg/mL
O=c1cc(-c2ccc(O)c(O)c2-c2c(O)cc(O)c3c(=O)cc(-c4ccc(O)cc4)oc23)oc2cc(O)cc(O)c12,ATCC 700084,>39.06 µg/mL
CCn1cc(C(=O)O)c(=O)c2cc(F)c(N3CCNC(C)C3)c(F)c21,mc2155,6.25 µM
COc1c(N2CC(C)NC(C)C2)c(F)cc2c(=O)c(C(=O)O)cn(-c3ccc(F)cc3F)c12,ATCC 19420,16 µg/mL
Cc1ccc(-c2ccc(Cl)cc2)[nH]1,103599,4 µg/mL
O=C1c2ccccc2C(=O)c2cc(C[P+](c3ccccc3)(c3ccccc3)c3ccccc3)ccc21,,2.5 µg/mL
Cc1c(N2CC[C@H](n3cccc3)C2)c(F)cn2c(=O)c(C(=O)O)cc(C3CC3)c12,ATCC114,0.78 µg/mL
Cc1c(CN2CCOCC2)c(CN2CCOCC2)c(-c2ccc(Cl)cc2)n1Cc1ccccc1,103599,>64 µg/mL
CN(C)[C@@H]1C(=O)C(C(N)=O)=C(O)[C@@]2(O)C(=O)C3=C(O)c4c(O)ccc(Cl)c4[C@@H](O)[C@H]3C[C@@H]12,mc2155,3.125 µM
CC(CO)(CO)NCCNC(C)(CO)CO.Cl.Cl,ATCC 607,250 µg/mL
O=C(O)c1cn(C2CC2)c2c(F)c(N3CCNCC3)c(F)cc2c1=O,ATCC 19420,0.25 µg/mL
CO[C@H]1[C@@H](O)[C@@H](C)O[C@H](O[C@H]2[C@H](Oc3cccc4c(O)c5c(=O)oc6ccc(C)c7c(=O)oc(c34)c5c67)O[C@H](C)[C@H](O)[C@@H]2O)[C@@H]1O,mc2155,1.56 µM
C=CCc1ccccc1/C=C1\COc2cc(O)ccc2C1=O,mc2155,500 µg/mL
C=C[C@]1(C)C=C2C(=O)c3c(NC=O)cccc3C(C)(C)[C@H]2C[C@H]1O,,>100 µM
Cc1c(CN2CCOCC2)cc(-c2ccc(Cl)cc2)n1C1CCCCC1,103599,>64 µg/mL
CC[C@H](CO)N1CCN([C@@H](CC)CO)CC1.Cl.Cl,ATCC 607,>250 µg/mL
CCCCCCn1c(C)c(CN2CCN(C)CC2)c(CN2CCN(C)CC2)c1-c1ccc(Cl)cc1,103599,>64 µg/mL
CCN1CCN(c2c(F)cc3c(=O)c(C(=O)O)cn(-c4ccc(F)cc4F)c3c2F)CC1,ATCC 19420,2 µg/mL
O=C(O)c1ccc2c(=O)c3cc([N+](=O)[O-])ccc3oc2c1,ATCC 607,>32 µg/mL
CN(C)[C@@H]1C(=O)C(C(N)=O)=C(O)[C@@]2(O)C(=O)C3=C(O)c4c(O)cccc4[C@@](C)(O)[C@H]3C[C@@H]12,PMN1 LFR,8 µg/mL
OC(c1cc(-c2ccccc2)nc2c1ccc1ccccc12)C1CCCCN1,mc2155,12.5 µM
CN[C@@H]1[C@@H](O)[C@@H](O[C@@H]2[C@@H](O)[C@H](O[C@H]3O[C@H](CN)CC[C@H]3N)[C@@H](N)C[C@H]2N)OC[C@]1(C)O,ATCC 607,>32 µg/mL
Cc1c(CN2CCN(C)CC2)c(CN2CCN(C)CC2)c(-c2ccc(Cl)cc2)n1Cc1ccccc1,103599,16 µg/mL
CC/C(C)=C(/NC(=O)[C@H](C)NC(=O)[C@@H]1CCC=NN1C(=O)[C@@H](NC(=O)[C@H](C)NC(=O)C(N)(CO)CO)[C@H](C)N)C(=O)N[C@@H](CO)C(=O)O,ATCC 607,12.5 µg/mL
O=C(O)c1cn(C2CC2)c2cc(N3CCNCC3)c(F)cc2c1=O,ATCC 14468,0.08 µg/mL
Ic1ccc2c(c1)N(c1ccccc1)c1cc(Nc3ccc4nc5ccc(I)cc5[n+](-c5ccccc5)c4c3)ccc1N2,mc2155,>100 µM
CCOc1c(N2CCNC(C)C2)c(F)cc2c(=O)c(C(=O)O)cn(C3CC3)c12,ATCC 19420,0.13 µg/mL
COC(=O)c1c(C)ccc2c(O)c3c(cc12)C(=O)c1c2c(cc(O)c1C3=O)C1(C)OC(C)(O2)C(O)C(N(C)C)C1O,mc2155,50 µM
Cc1cc(N)cc2c(=O)c3ccccc3oc12,ATCC 607,>32 µg/mL

The first 5 rows once more:

smiles	strain	result
C=CC1=C(C)C2=Cc3c(C=C)c(C)c4[n]3[Ga][n]3c(c(C)c(CCC(=O)O)c3=CC3=NC(=C4)C(C)=C3CCC(=O)O)=CC1=N2	LR222	0.4 µg/mL
S=C(S)N1CCCC1	mc2155	>100 µM
Cc1cc(CN2CCN(C)CC2)c(C)n1Cc1ccccc1	103599	>64 µg/mL
O=C(CCCCCCCCCCCCCCCCCNCC(=O)N1CCOP(O)(=S)OCC1)N1CCOP(O)(=S)OCC1		7.8 µM
CNCC1CCN(c2c(F)cc3c(=O)c(C(=O)O)cn(-c4ccc(F)cc4F)c3c2F)C1	ATCC 19420	0.5 µg/mL

An empty or dashed field is not shown.